# Genome-wide point mutation profile of HIV-1: non-coding ends

The measurements come from Al-Mawsawi et al. 2014 (doi:10.1186/s12977-014-0124-6).

Positions lie in the non-coding 5' end or the 3' LTR of the genome. Changes in the 5' U3 are not copied into viral RNA and those in the 3' R are mostly lost on reverse transcription, so a low index there need not show harm (not discussed in the paper).

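Random point mutant libraries of HIV-1 NL4-3, one for each of seven fragments, were passaged in CEM T lymphocytes. The RC index is the frequency of a change after passage round 2 divided by its frequency in the plasmid library.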

Values are the RC index; higher means better tolerated. The authors read about 0.1 or less as lethal, 0.1-0.2 as attenuated and 0.2 or more as tolerated. The authors read an index above 1 as above wild type (1.9% of all changes in the genome).

base,region,RC
A9453G,3' U3,0.909
G9454A,3' U3,0.372
G9455A,3' U3,0.615
G9455T,3' U3,1.04
G9457A,3' U3,0.451
G9457C,3' U3,0.464
G9457T,3' U3,0.581
T9458A,3' U3,0.391
T9458C,3' U3,0.685
G9460C,3' U3,0.300
C9461A,3' U3,0.458
C9461G,3' U3,0.163
C9461T,3' U3,0.919
C9462A,3' U3,0.595
T9463G,3' U3,0.174
C9467G,3' U3,0.404
C9467T,3' U3,0.839
G9468A,3' U3,0.574
G9468T,3' U3,0.400
G9469T,3' U3,0.622
G9470A,3' U3,1.30
G9470T,3' U3,0.444
A9471T,3' U3,0.489
T9473C,3' U3,0.826
G9474A,3' U3,1.85
A9478G,3' U3,0.336
T9480C,3' U3,0.186
G9482A,3' U3,1.02
G9482T,3' U3,0.389
G9484T,3' U3,1.58
G9486T,3' U3,1.60
C9487T,3' U3,1.06
C9488T,3' U3,0.873
C9489A,3' U3,0.733
A9492C,3' U3,0.575
A9494G,3' U3,0.884
A9494T,3' U3,0.449
G9496A,3' U3,1.16
C9497A,3' U3,0.590
G9499T,3' U3,0.317
C9500A,3' U3,0.966
A9501G,3' U3,0.0442
A9503T,3' U3,0.391
A9505G,3' U3,0.0711
A9506G,3' U3,0.0643
A9506T,3' U3,0.180
G9507A,3' U3,0.999
C9508T,3' U3,0.795
G9510T,3' U3,0.676
C9511T,3' U3,0.754
C9514A,3' U3,0.180
C9514T,3' U3,0.375
T9518A,3' U3,0.769
T9518C,3' U3,1.82
G9520C,3' U3,0.355
G9520T,3' U3,0.228
C9521A,3' U3,0.225
C9522G,3' U3,0.827
T9523C,3' U3,0.598
G9524C,3' U3,0.162
C9527A,3' U3,0.909
C9527T,3' U3,0.764
G9530T,3' R,1.02
T9534A,3' R,0.216
T9534C,3' R,0.569
C9537T,3' R,0.228
T9541A,3' R,0.134
T9541C,3' R,0.292
A9543G,3' R,0.124
C9547A,3' R,0.143
C9547T,3' R,0.180
A9550G,3' R,0.151
A9550T,3' R,0.0727
T9553A,3' R,0.662
A9555T,3' R,0.0522
A9563T,3' R,0.299
C9565A,3' R,0.0431
C9567T,3' R,0.0535
T9568C,3' R,0.212
T9570A,3' R,0.0442
C9573A,3' R,0.807
T9574A,3' R,0.0860
T9574C,3' R,0.135
A9575T,3' R,0.263
C9577A,3' R,0.294
T9578C,3' R,0.292
T9578G,3' R,0.222
A9579G,3' R,0.158
A9579T,3' R,0.0833
G9580T,3' R,0.569
A9584T,3' R,0.128
C9589A,3' R,0.0708
T9590A,3' R,0.0510
T9590C,3' R,0.128
G9591T,3' R,0.211
C9592A,3' R,0.0419
T9594C,3' R,0.314
A9596T,3' R,0.0693
G9597A,3' R,0.223
C9601A,3' R,0.317
T9604C,3' R,0.176
A9605G,3' R,0.140
A9605T,3' R,0.241

A selection of 6 entries from above:

| base | region | RC |
|---|---|---|
| T9518A | 3' U3 | 0.769 |
| T9570A | 3' R | 0.0442 |
| G9457A | 3' U3 | 0.451 |
| A9505G | 3' U3 | 0.0711 |
| T9590C | 3' R | 0.128 |
| A9596T | 3' R | 0.0693 |

Base changes are numbered along pNL4-3. Clones carried about five changes per kilobase, which can drag down the index of neutral changes.